From article PMC11307329
Where a protein sequence is shown, tags need not be part of it.

System: T1, XisF4 (native excisionase) (Pseudomonas aeruginosa PAO1)
T1 sequence (looked up): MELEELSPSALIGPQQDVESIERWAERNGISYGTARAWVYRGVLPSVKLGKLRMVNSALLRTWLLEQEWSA
Assay: EMSA
Conditions: recombinant protein; residues 1-71; protein details: His6 (pET28a); probe letters rebuilt from the primers and the genome

“CTGACCGTCCGACTCGATACTGACGCGAATTTGATGGCTGATTTTCTTCATCTTTAACGATCCAAATTGGTACGAATTGAAACCGCAATAGGTGGCTTATCTGACGTGTTACAGGGGCGTCGGCCGCGCCTTCGGCCTATCGCTCATGCCTTGCGCTCCCGGCCGGCGGCGCGGCCCGCCCCTCATGGCGGCACCCCTACCGCCGCTAGCGCCGTCATCACCGTCCACCAGTGATGCAGCGCCCAGCCCATCGCCACCGGGGCGAGGAATTCCCAATCGATCATTTCTGCCTCCAGGGCCGCGAGGCGTATTCGGAATCGGGGACGATGGTCAGCGGCGACTGCCCCCTGGCCGGTGCGTCTGCGGAGGCGGCAACAGGCGCTGCCGGAACGATGCTGGCCACCGCGCCGGGCTGCCTCCCGGTACAGGTGACGGTCTGTTTCCACTCCTCATAGCGAAGCTCTACGACGCACTCGCCCTTGGGCGTTACCCGGTAGCCGGAGCCGATCAGTTGCCAACTGGTGAGTTCCAGG (double strand) [pa0727 (int4) promoter]”: binds.
